Pooled drug test results. Numbers come from NIAID ChemDB, via PubChem.

Shared fields: growth or infection tests; species: Cryptococcus neoformans; read-out: EC50

Blank or dashed fields: not listed here.

SMILES	strain	method	setting	result
CC(C)CC(C(=O)O)N1C(=O)C(C)SC1c1ccccc1	-	broth dilution	-	78.32 µM
CCCCCc1ccc(C(=O)Oc2c(OC)cc3ccnc4c3c2N(C)C=C4)cc1	-	-	-	3 µg/mL
CN(c1ccccc1)c1cc2ccccc2[n+](C)c1.[I-]	ATCC 90113	resazurin	-	>20 µg/mL
NC(=O)c1cc[n+](CCC[n+]2cccc(/C=N/O)c2)cc1.[Br-].[Br-]	-	broth dilution	-	>20 µg/mL
COc1cc2ccnc3c2c(c1OC(=O)CSc1ccccc1)N(C)C=C3	-	-	-	>15 µg/mL
O=C(O)CN1C(=O)CSC1c1c(Cl)cccc1Cl	-	broth dilution	-	52.91 µM
COc1ccc2sc3cc4ccccc4[n+](C)c3c2c1	ATCC 90113	broth dilution	-	>20 µg/mL
C[n+]1cccc(Nc2ccccc2)c1.[I-]	ATCC 90113	resazurin	-	>20 µg/mL
S=C(S)n1nnc2ccccc21	-	broth dilution / absorbance	48 h	>50 µg/mL
COc1ccc2c(c1)sc1cc3ccccc3[n+](C)c12	ATCC 90113	broth dilution	-	>20 µg/mL
CCc1cc(C(C)(C)C)nc2c(NC(C)CCCN)cc(OC)c(Oc3cccc(C(F)(F)F)c3)c12	-	-	-	3.5 µg/mL
C[C@@H]1[C@H](O)[C@@H](C)/C=C/C=C/C=C/C=C/C=C/C=C/C=C/[C@H](O[C@@H]2O[C@H](C)[C@@H](O)[C@H](N)[C@@H]2O)C[C@@H]2O[C@](O)(C[C@@H](O)C[C@@H](O)[C@H](O)CC[C@@H](O)C[C@@H](O)CC(=O)O[C@H]1C)C[C@H](O)[C@H]2C(=O)O	JEC21	broth dilution	-	>10 µg/mL
OC(Cn1cncn1)(Cn1cncn1)c1ccc(F)cc1F	Var. gattii (isolate 54713)	colony count	-	<1 µg/mL
Fc1ccc2[nH+]c3c4ccccc4n(CCCCCC4CCCCC4)c3cc2c1	ATCC 90113	-	-	>50 µg/mL
O/N=C/c1cc[n+](Cc2cc(C[n+]3ccc(/C=N/O)cc3)on2)cc1.[Br-].[Br-]	-	broth dilution	-	>20 µg/mL
Cn1c2ccccc2c2c1cc1cc(Br)ccc1[n+]2CCCCCc1ccccc1	ATCC 90113	-	-	1.3 µg/mL
COc1cc2ccnc3c2c(c1OC(=O)c1cccc(C)c1)N(C)C=C3	-	-	-	15 µg/mL
O/N=C/c1ccc[n+](Cc2ccc(C[n+]3cccc(/C=N/O)c3)s2)c1.[Cl-].[Cl-]	-	broth dilution	-	>20 µg/mL
Cn1c2ccccc2c2c1cc1cc(Br)ccc1[n+]2C	ATCC 90113	-	-	0.4 µg/mL
COc1cc2ccnc3c2c(c1OC(=O)c1ccc(F)cc1)N(C)C=C3	-	-	-	>15 µg/mL
CC1=CCC[C@@H]2[C@@](C)(CC/C(C)=C/Cn3c[n+](C)c4ncnc(NO)c43)[C@H](C)CC[C@@]12C	ATCC 90113	resazurin	-	4.96 µg/mL
COc1ccccc1C1SCCC(=O)N1C(Cc1ccccc1)C(=O)O	-	broth dilution	-	43.28 µM
CCN(CC)C(=O)Oc1c(OC)cc2ccnc3c2c1N(C)C=C3	-	-	-	>15 µg/mL
Brc1ccc2[nH+]c3c4ccccc4n(CCCCCC4CCCCC4)c3cc2c1	ATCC 90113	-	-	>50 µg/mL
COc1ccccc1C1SCC(=O)N1C(Cc1ccccc1)C(=O)O	-	broth dilution	-	48.05 µM
C[C@H]([C@](O)(Cn1cncn1)c1ccc(F)cc1F)S(C)(=O)=O	R716 (AZOLE-R)	-	-	1.8 µM
O=C(O)C(Cc1ccccc1)N1C(=O)CSC1c1c(Cl)cccc1Cl	-	broth dilution	-	12.16 µM
O/N=C/c1cccc[n+]1Cc1ccc(Br)s1.[Cl-]	-	broth dilution	-	>20 µg/mL
CC1SC(c2ccccn2)N(C(C)C(=O)O)C1=O	-	broth dilution	-	43.16 µM
N#Cc1ccc2[nH+]c3c4ccccc4n(CCCCCC4CCCCC4)c3cc2c1	ATCC 90113	-	-	>50 µg/mL
CC(C(=O)O)N1C(=O)CSC1c1ccccn1	-	broth dilution	-	22.5 µM
CCc1ccc(C(=O)Oc2c(OC)cc3ccnc4c3c2N(C)C=C4)cc1	-	-	-	5.5 µg/mL
CN(c1cc2ccccc2[n+](C)c1)c1ccccc1Cl.[I-]	ATCC 90113	resazurin	-	>20 µg/mL

A second listing of 4 rows from above:

SMILES	strain	method	setting	result
CCc1ccc(C(=O)Oc2c(OC)cc3ccnc4c3c2N(C)C=C4)cc1	-	-	-	5.5 µg/mL
C[C@H]([C@](O)(Cn1cncn1)c1ccc(F)cc1F)S(C)(=O)=O	R716 (AZOLE-R)	-	-	1.8 µM
COc1ccc2c(c1)sc1cc3ccccc3[n+](C)c12	ATCC 90113	broth dilution	-	>20 µg/mL
O=C(O)C(Cc1ccccc1)N1C(=O)CSC1c1c(Cl)cccc1Cl	-	broth dilution	-	12.16 µM

Neighbouring rows are from separate reports. ECn: concentration that inhibits the pathogen or its effect by n%.